Consider 72 molecules from PubChem BioAssay AID1706 (The Scripps Research Institute Molecular Screening Center, 2009).

The inhibition is the relative decrease from the control value, in per cent.

SMILES strings stand for the structures. Only a part is listed here, and it is no random draw. Calls of active or inactive are those of the source. Rule as the data show it: active = inhibition above about 12%; inactive = the rest.

The test addresses Replicase polyprotein 1ab (Severe acute respiratory syndrome coronavirus) (UniProt P0C6X7). The test is described as follows: SARS-CoV 3CLpro protease inhibitors, primary screen, biochemical, quenched FRET (AID 1706). Particulars: recombinant SARS-CoV 3CLpro, quenched FRET peptide cleavage; at 6 µM; active compounds read high.
Turning to `CC(=O)Nc1ccc([As](=O)(O)O)c(O)c1`, the inhibition is inactive: 4.51%. Take `CC(=O)c1ccc(N2CC2c2ccncc2)cc1` (configuration not stated): the inhibition was inactive: -3.12%. The same measure for `CC(C)(C)C(=O)NC(Sc1ccccc1)C(Cl)(Cl)Cl` (configuration not stated): inactive: 7%. As to `CCOc1ccc(C2=NCC(CBr)S2)cc1` (configuration not stated), the inhibition is inactive: -3.54%. The same measure for `O=P1(Nc2nc3ccc(Cl)cc3s2)COc2ccccc2O1` (configuration not stated): inactive: 0.78%; for `CCOP(=O)(Nc1cccc2ccccc12)OCC`: inactive: 1.98%. In the case of `COc1cc(C2NCCC3(OCCO3)C2(C)C)cc(OC)c1OC` (configuration not stated), the inhibition was inactive: 0.17%.

For `CCCOP(=S)(Nc1nc(N)cc(=O)[nH]1)OCCC`, the inhibition is inactive: 0.39%. `Nc1cccc2c([As](=O)(O)O)cccc12`: the inhibition is inactive: -2.22%. Take `Cc1ccc(NCCc2c([N+](=O)[O-])cc([N+](=O)[O-])cc2[N+](=O)[O-])cc1`: the inhibition is inactive: -0.33%.

With `O=[As](O)(c1cccc(O)c1)c1cccc(O)c1`, the inhibition is inactive: -0.4%. `Cc1cccc(OCC(=O)OC2CN3CCC2CC3)c1` (configuration not stated): the inhibition was inactive: 4.74%. For `CS(=O)(=O)c1ccc(Cl)c(NC(=O)COC(=O)C(O)(c2ccccc2)c2ccccc2)c1`, the inhibition is inactive: -0.4%. Turning to `COc1cc(C(=O)NCC2(N3CCOCC3)CCCCC2)cc(Cl)c1OC(C)C`, the inhibition was inactive: -2.88%.

For `O=[As](O)(O)c1cccnc1`, the inhibition is inactive: -3.84%. For `O=C(OC1CN2CCC1CC2)c1ccc(Cl)cc1` (configuration not stated), the inhibition was inactive: -2.11%. Regarding `O=[N+]([O-])c1ccc2c(c1)nnn2O`, the inhibition is inactive: 0.55%. Turning to `CCOP1(=S)c2c(C)nn(CCC#N)c2N=C(c2ccc(F)cc2)N1C` (configuration not stated), the inhibition is inactive: 4.21%.

On to `Nc1ccccc1[As](=O)(O)c1ccccc1`, for which the inhibition was inactive: -4.63%.

Regarding `O=C(O)COc1ccc([As](=O)(O)O)cc1[N+](=O)[O-]`, the inhibition was inactive: -6.83%.

With `CS(=O)(=O)c1cc([N+](=O)[O-])c2no[n+]([O-])c2c1`, the inhibition was inactive: 0.43%. For the molecule `O=P(Nc1nccs1)(c1ccccc1)c1nc2ccccc2s1` (configuration not stated), the inhibition was inactive: -1.36%. With `O=P(Nc1nccs1)(Oc1ccccc1)Oc1ccccc1`, the inhibition was inactive: -0.43%. For the molecule `CCOP1(=S)c2c(C)nn(CCC#N)c2N=C(c2ccccc2F)N1C` (configuration not stated), the inhibition was inactive: -1.77%. As to `O=P1(Nc2ccc(Br)cn2)COc2ccccc2OC1`, the inhibition is inactive: -3.37%. Under `O=[As](O)(c1cccs1)c1cccs1` stands inactive: 2.53%; under `Cc1ccc(OCC(=O)OC2CN3CCC2CC3)cc1` (configuration not stated), inactive: 0.21%. Regarding `Nc1cccc([As](=O)(O)c2ccccc2)c1`, the inhibition is inactive: 0.56%. The same measure for `O=P1(Nc2ncccn2)COc2ccccc2OC1`: inactive: -3.9%. Under `O=C(/C=C/c1ccccc1)OC1CN2CCC1CC2` (configuration not stated) stands inactive: -0.87%; under `CN(C)C1(CNC(=O)c2ccc(S(C)(=O)=O)cc2)CCCCC1`, inactive: 4.94%; under `CC1CCC(C(C)C)C(OP(=O)(Nc2ccccn2)c2ccccc2)C1` (configuration not stated), inactive: 4.45%. `Cc1ccc(C(=O)OC2CN3CCC2CC3)cc1` (configuration not stated): the inhibition was inactive: 3.12%. Regarding `Cc1nn(-c2ccccc2)c2c1P(=O)(N1CCOCC1)N(C)C(c1ccccc1)=N2` (configuration not stated), the inhibition is inactive: -2.69%. Under `CC1(CBr)Cn2c(nc3ccccc3c2=O)S1` (configuration not stated) stands inactive: -6.28%; under `O=[As](O)(c1ccccc1Br)c1ccccc1Br`, inactive: 3.23%; under `CC(C)/C=N\N=C(\N)N[N+](=O)[O-]`, inactive: 0.47%.

In the case of `CN(C(=O)Cc1ccc(Cl)c(Cl)c1)[C@@H]1CCCC[C@H]1N1CCCC1`, the inhibition is inactive: 0.93%.

For `CC(C)(C)C(=O)NC(Sc1ncccn1)C(Cl)(Cl)Cl` (configuration not stated), the inhibition is inactive: -5.83%. Under `Clc1n[nH]nc1-c1nn[nH][15n]1` stands inactive: -0.87%; under `CCOP(=O)(Nc1ccc(C)cn1)OCC`, inactive: -1.65%. In the case of `CCOP(=O)(NC(=NC(C)c1ccccc1)NC(C)c1ccccc1)OCC` (configuration not stated), the inhibition was inactive: -1.35%.

For `O=P1(Nc2ccccn2)COc2ccccc2OC1`, the inhibition was inactive: -4.44%. `CCC1=CC2Cc3nc4ccc(Cl)cc4c(N)c3C(C1)C2` (configuration not stated): the inhibition was inactive: -5.84%.

With `CCC(C)N(CC(C)C)C(=S)SC(NC(C)=O)C(Cl)(Cl)Cl` (configuration not stated), the inhibition was inactive: -5.01%. Under `CCOC(=O)c1ccc(NC(=O)C(C)(CCl)SC)cc1` (configuration not stated) stands inactive: -1.31%; under `O=C(OC1CN2CCC1CC2)c1cccc([N+](=O)[O-])c1` (configuration not stated), inactive: 2.65%; under `O=C(Nc1ccncc1[N+](=O)[O-])c1ccc([N+](=O)[O-])cc1[N+](=O)[O-]`, inactive: 1.74%.

As for `O=C(COc1ccccc1)OC1CN2CCC1CC2` (configuration not stated), the inhibition is inactive: 1.34%.

For `COP1(=S)c2c(C)nn(CCC#N)c2N=C(c2ccc(F)cc2)N1C` (configuration not stated), the inhibition was inactive: 2.98%. As for `O=[N+]([O-])c1ccc(Nc2ccc(Oc3ccc([N+](=O)[O-])cc3[N+](=O)[O-])cc2)c([N+](=O)[O-])c1`, the inhibition was inactive: 2.14%. With `O=P(Nc1ccccn1)(c1cccc2ccccc12)c1cccc2ccccc12`, the inhibition was inactive: 3.65%. In the case of `Cc1cc(SC(NC=O)C(Cl)(Cl)Cl)ncn1` (configuration not stated), the inhibition was inactive: 0.53%.

As to `CCOC(=O)Nc1cccc([As](=O)(O)O)c1`, the inhibition was inactive: -3.2%. As to `Cc1cc(SC(NC(=O)c2ccccc2)C(Cl)(Cl)Cl)nc(C(C)C)n1` (configuration not stated), the inhibition is inactive: 5.86%. `CCCCOc1ccc(C(=O)NCC2(N3CCCCC3)CCCCC2)cc1OC`: the inhibition was inactive: 0.23%. For the molecule `CCOC(=O)Nc1ccc([As](=O)(O)O)c(O)c1`, the inhibition was inactive: 0.21%. `O=[N+]([O-])c1cc([N+](=O)[O-])c(-c2ccn[nH]2)s1`: the inhibition was inactive: -4.74%. On to `CCN(CC)C(=S)SC(NC=O)C(Cl)(Cl)Cl` (configuration not stated), for which the inhibition is inactive: -0.85%. The same measure for `CC(C)NC(=O)NP(=O)(Oc1ccccc1)Oc1ccccc1`: inactive: 0.2%; for `CC(C)c1ccc(OP(=O)(Nc2ccccn2)Oc2ccccc2F)cc1` (configuration not stated): inactive: -1.04%; for `ClCCSc1nnc(-c2cccnc2)o1`: inactive: -8.55%. For `Cc1ccc2nc3c(c(C)c2c1)CC(C(Cl)Cl)S3` (configuration not stated), the inhibition was inactive: 4.03%. As to `Cc1ccc(OP(=O)(Nc2ccc([N+](=O)[O-])cn2)Oc2ccc(C)cc2)cc1`, the inhibition was inactive: -0.5%. Under `O=[As](O)(c1ccc(O)cc1)c1ccccc1O` stands inactive: -3.7%; under `C[As](=O)(O)c1cccc(C(=O)O)c1`, inactive: 0.34%; under `COc1ccc(N/C(=N/P(=O)(N2CCOCC2)N2CCOCC2)N2CCOCC2)cc1`, inactive: -0.9%. On to `COc1cc(I)ccc1[As](=O)(O)O`, for which the inhibition is inactive: -0.5%. Turning to `COc1ccc2nc(NP(=O)(c3ccccc3)c3ccccc3)sc2c1`, the inhibition is inactive: -1.21%. Under `Cc1cc(=O)[nH]c(N[N+](=O)[O-])n1` stands inactive: 4.69%.

As for `O=C(OC1CN2CCC1CC2)C12CC3CC(CC(C3)C1)C2` (configuration not stated), the inhibition was inactive: 1.42%. As to `Cc1c2c(nc3ccccc13)SC(C(Cl)Cl)C2` (configuration not stated), the inhibition was inactive: -3.73%.
